Results of unrelated studies side by side (data: NIAID ChemDB).

All rows: whole-cell or culture tests; organism: Sindbis virus

Neighbouring rows are from separate reports. ECn: concentration that inhibits the pathogen or its effect by n%. Blank or dashed fields: not listed here.

| SMILES | endpoint | method | cell line | value |
|---|---|---|---|---|
| C[C@H]1O[C@@H](c2n[nH]c(C(N)=O)c2O)[C@H](O)[C@@H]1O | EC50 | cytopathic effect | VERO | >200 µg/mL |
| NC1CSCCN2CCc3c([nH]c4ccccc34)[C@H]12 | EC50 | cytopathic effect | VERO | 2 µg/mL |
| CC=NC(=N)c1nc(-c2ccc(OC)cc2)n(C/C=C/c2ccccc2)n1 | EC50 | cytopathic effect | VERO | >100 µg/mL |
| CC1(C)[C@@H](CCO)C[C@H]1n1cnc2c(N)ncnc21 | EC50 | cytopathic effect | VERO | >400 µg/mL |
| CC(C)CS[C@@H]1C=C[C@H](n2cnc3c(N)ncnc32)C1 | EC50 | cytopathic effect | HeLa | >3.2 µg/mL |
| CC(=O)OCCOCN1C(=O)C=CN(COCCO)S1(=O)=O | EC50 | - | VERO | >400 µg/mL |
| CCON=C[C@H]1O[C@@H](n2cnc3c(N)ncnc32)[C@H](O)[C@@H]1O | EC50 | cytopathic effect | VERO | >100 µg/mL |
| CC1(CO)CCC(Cn2nnc3c(N)ncnc32)C1(C)C | EC50 | cytopathic effect | VERO | >40 µg/mL |
| NC1=CC(N)=NS(=O)(=O)N1COCCO | EC50 | - | VERO | >400 µg/mL |
| Cc1nc(Cc2ccccc2)c2[nH]c(=S)[nH]c(=O)n12 | EC50 | cytopathic effect | VERO | >100 µg/mL |
| CC(Sc1ncnc2c1cnn2CCCCO)C(N)=O | EC50 | cytopathic effect | VERO | >400 µg/mL |
| CCn1nc(CC(=O)N/N=C/c2ccco2)nc1C | MIC | - | - | >80 µg/mL |
| Nc1nc(F)nc2c1ncn2[C@@H]1C=C(CO)[C@@H](O)[C@H]1O | EC50 | cytopathic effect | VERO | 1 µg/mL |
| CC1(C)[C@@H](CCO)C[C@H]1n1cnc2c(N)nc(N)nc21 | EC50 | cytopathic effect | VERO | >400 µg/mL |
| Nc1nccc2c1ncn2[C@@H]1C[C@H](CO)[C@@H](O)[C@H]1O | EC50 | cytopathic effect | VERO | 4 µg/mL |
| Nc1ncnc2c1ncn2[C@@H]1C=C(CO)[C@@H](O)[C@H]1O | EC50 | cytopathic effect | VERO | 7 µg/mL |
| CC(C)OC1[C@H](n2ccc(=O)[nH]c2=O)O[C@H](COS(=O)(=O)NC(=O)N[C@H]2O[C@H](COCc3ccccc3)[C@@H](OCc3ccccc3)[C@H](OCc3ccccc3)[C@H]2OCc2ccccc2)[C@H]1OC(C)C | EC50 | plaque count | VERO | 75 µg/mL |
| O=c1ccn([C@@H]2C[C@H](CO)C[C@H]2CO)c(=O)[nH]1 | EC50 | - | VERO | >100 µg/mL |
| CC=NC(=N)c1nc(-c2ccc(C)cc2)n(Cc2ccccc2)n1 | EC50 | cytopathic effect | VERO | >10 µg/mL |
| NC(=O)CSc1ncnc2c1cnn2COCCO | EC50 | cytopathic effect | VERO | >400 µg/mL |
| C=C(N=CC)c1nc(-c2ccccc2)n([C@@H]2O[C@H](CO)[C@@H](O)[C@H]2O)n1 | EC50 | cytopathic effect | VERO | >100 µg/mL |
| COc1ccc2[nH]c3c(c2c1)CCN1OCSCC(N)[C@@H]31 | EC50 | cytopathic effect | VERO | 0.02 µg/mL |
| Nc1ncnc2c1ncn2C[C@H](O)CO | EC50 | cytopathic effect | VERO | >400 µg/mL |
| NNC(=O)Cc1nc2n(n1)CCCCC2 | MIC | - | - | >16 µg/mL |
| CC(=O)Nc1nc2c(CC(O)CO)nc(C)n2c(=O)[nH]1 | EC50 | cytopathic effect | VERO | >200 µg/mL |
| Nc1ccn([C@@H]2C[C@H](CO)[C@@H](O)[C@H]2O)c(=O)n1 | EC50 | cytopathic effect | VERO | 0.7 µg/mL |
| OC[C@H]1O[C@@H](c2cc(Cl)c(F)cc2F)C[C@@H]1O | EC50 | cytopathic effect | VERO | >80 µg/mL |
| CC(=O)OC[C@H]1O[C@H](OC(=O)NS(=O)(=O)OC[C@H]2O[C@@H](n3ccc(=O)[nH]c3=O)[C@H](OC(C)C)[C@@H]2OC(C)C)[C@H](OC(C)=O)[C@@H](OC(C)=O)[C@@H]1OC(C)=O | EC50 | plaque count | VERO | >100 µg/mL |
| CCc1nc(CC(=O)NN=C(C)C)nn1CC | MIC | - | - | >80 µg/mL |
| C=C(N=CC)c1nc(-c2ccc(OC)cc2)n(C2O[C@H](CO)[C@@H](O)[C@H](O)[C@H]2O)n1 | EC50 | cytopathic effect | VERO | >200 µg/mL |
| CC1(CO)CCC(Cn2cnc3c(=O)[nH]c(N)nc32)C1(C)C | EC50 | cytopathic effect | VERO | >400 µg/mL |
| Nc1ncnc2c1ncn2C[C@H](O)CO | EC50 | cytopathic effect | BHK | >200 µg/mL |
| COC(=O)[C@]1(C)CCC[C@]2(C)c3cc(Br)c4nc(C(F)(F)F)[nH]c4c3CCC12 | EC50 | plaque count | VERO | >4 µg/mL |
| CCOC(=O)C1=CN(COCCO)S(=O)(=O)NC1=O | EC50 | - | VERO | >400 µg/mL |
| CC1(C)[C@@H](CCO)C[C@H]1n1nnc2c(N)ncnc21 | EC50 | cytopathic effect | VERO | >100 µg/mL |
| Nc1nc2c(ccn2[C@@H]2C[C@H](CO)[C@H](O)[C@@H]2O)c(=O)[nH]1 | MIC | - | - | >100 µg/mL |
| CC(=O)N[C@H]1[C@@H](OC(=O)NS(=O)(=O)OC[C@H]2O[C@@H](n3ccc(=O)[nH]c3=O)[C@H](OC(C)C)[C@@H]2OC(C)C)O[C@H](COC(C)=O)[C@@H](OC(C)=O)[C@@H]1OC(C)=O | EC50 | plaque count | VERO | >100 µg/mL |
| CC=NC(=N)c1nc(-c2cccc(OC)c2)n(C/C=C/c2ccccc2)n1 | EC50 | cytopathic effect | VERO | >40 µg/mL |
| CC(C)Nc1ncnc2c1ncn2C1C[C@H](CO)[C@@H](CO)C1 | EC50 | - | VERO | >100 µg/mL |
| CC1(CO)CCC(Cn2ccc(=O)[nH]c2=O)C1(C)C | EC50 | cytopathic effect | VERO | >400 µg/mL |
| C#C[C@@H](O)C1=C[C@@H](n2cnc3c(N)ncnc32)[C@H](O)[C@@H]1O | EC50 | cytopathic effect | VERO | >400 µg/mL |
| Nc1nccc2c1ncn2[C@@H]1C[C@H](CO)[C@@H](O)[C@H]1O | MIC | - | - | >400 µg/mL |
| COC(=O)[C@]1(C)CCC[C@]2(C)c3ccc4[nH]cnc4c3CCC12 | EC50 | plaque count | VERO | >4 µg/mL |
| C=C(N=CC)c1nc(-c2ccccc2)n(C2O[C@H](CO)[C@@H](O)[C@H](O)[C@H]2O)n1 | EC50 | cytopathic effect | VERO | >200 µg/mL |
| Nc1nccc2c1ncn2[C@@H]1CC[C@@H](O)[C@H]1O | MIC | - | - | >100 µg/mL |
| Cc1nc(CC(=O)NN)nn1C | MIC | - | - | >80 µg/mL |
| Nc1ncnc2c1ncn2[C@@H]1O[C@H](C=NOCc2ccccc2)[C@@H](O)[C@H]1O | EC50 | cytopathic effect | VERO | >100 µg/mL |
| Nc1ccn(CCCC(O)CF)c(=O)n1 | EC50 | cytopathic effect | VERO | >400 µg/mL |
| CC1(CO)CCC(Cn2nnc3c(N)nc(N)nc32)C1(C)C | EC50 | cytopathic effect | VERO | >200 µg/mL |
| Cc1nc(CC(O)CO)c2nc[nH]c(=O)n12 | EC50 | cytopathic effect | VERO | >400 µg/mL |
| N#CC1=CN(COCCO)S(=O)(=O)N=C1N | EC50 | - | VERO | >400 µg/mL |
| COC(=O)[C@]1(C)CCC[C@]2(C)c3ccc4[nH]c(C(F)(F)F)nc4c3CCC12 | EC50 | plaque count | VERO | >4 µg/mL |
| Nc1ccn(C(CF)CCCO)c(=O)n1 | EC50 | cytopathic effect | VERO | >400 µg/mL |
| CCC(Sc1ncnc2c1cnn2CCCCO)C(N)=O | EC50 | cytopathic effect | VERO | >400 µg/mL |
| O=c1[nH]c(=O)n([C@@H]2C[C@H](CO)C[C@H]2CO)cc1I | EC50 | - | VERO | >100 µg/mL |
| C#C[C@H](O)C1=C[C@@H](n2cnc3c(N)ncnc32)[C@H](O)[C@@H]1O | EC50 | cytopathic effect | VERO | >100 µg/mL |
| CC1(CO)CCC(Cn2nnc3c(Cl)ncnc32)C1(C)C | EC50 | cytopathic effect | VERO | >40 µg/mL |
| CCn1nc(CC(=O)NN=C(C)C)nc1C | MIC | - | - | >80 µg/mL |
| CC1=CC(=O)N(c2ccccc2)S(=O)(=O)N1COCCO | EC50 | - | VERO | >400 µg/mL |
| CC1(CO)CCC(Cn2nnc3c(Cl)nc(N)nc32)C1(C)C | EC50 | cytopathic effect | VERO | >100 µg/mL |
| CC(=O)OC[C@H]1O[C@@H](OC(=O)NS(=O)(=O)OC[C@H]2O[C@@H](n3ccc(=O)[nH]c3=O)[C@H](OC(C)C)[C@@H]2OC(C)C)[C@@H](OC(C)=O)[C@@H](OC(C)=O)[C@@H]1OC(C)=O | EC50 | plaque count | VERO | 100 µg/mL |
| COc1cc2c(cc1OC)[C@@H]1C(N)CSCON1CC2 | EC50 | cytopathic effect | VERO | 0.07 µg/mL |
| Nc1ncnc2c1ncn2[C@@H]1C[C@H](CO)[C@@H](O)[C@H]1O | EC50 | cytopathic effect | VERO | 2 µg/mL |
| Nc1ncnc2c1ncn2[C@@H]1C=C[C@@H](O)[C@H]1O | MIC | - | - | >400 µg/mL |

Repeating the final 4 entries:

{"SMILES": "CC(=O)OC[C@H]1O[C@@H](OC(=O)NS(=O)(=O)OC[C@H]2O[C@@H](n3ccc(=O)[nH]c3=O)[C@H](OC(C)C)[C@@H]2OC(C)C)[C@@H](OC(C)=O)[C@@H](OC(C)=O)[C@@H]1OC(C)=O", "endpoint": "EC50", "method": "plaque count", "cell line": "VERO", "value": "100 µg/mL"}
{"SMILES": "COc1cc2c(cc1OC)[C@@H]1C(N)CSCON1CC2", "endpoint": "EC50", "method": "cytopathic effect", "cell line": "VERO", "value": "0.07 µg/mL"}
{"SMILES": "Nc1ncnc2c1ncn2[C@@H]1C[C@H](CO)[C@@H](O)[C@H]1O", "endpoint": "EC50", "method": "cytopathic effect", "cell line": "VERO", "value": "2 µg/mL"}
{"SMILES": "Nc1ncnc2c1ncn2[C@@H]1C=C[C@@H](O)[C@H]1O", "endpoint": "MIC", "value": ">400 µg/mL"}